Measurements taken from patent US20010014364A1, “Use of stabilized bromine to improve quality and appearance of leafy vegetables or the like” (priority 1997, published 2001).

System: leaf lettuce
Assay: Shelf-life sensory rating (odor, browning/dark spots) of leaf lettuce during storage at 4-6° C.
Set-up: key: PASS: Based on the odor and dark spot sensory scores, lettuce was given a pass or fail rating; FAIL: Lettuce was considered unacceptable if noticeable off-odors were noted and if significant browning or darks sports were present

OCl [Bleach, sodium hypochlorite]
Sensory rating (PASS/FAIL) of leaf lettuce (Day 0, 50 ppm av. Cl2): PASS
Sensory rating (PASS/FAIL) of leaf lettuce (Day 0, 100 ppm av. Cl2): PASS
Sensory rating (PASS/FAIL) of leaf lettuce (Day 0, 200 ppm av. Cl2): PASS
Sensory rating (PASS/FAIL) of leaf lettuce (Day 1, 50 ppm av. Cl2): PASS
Sensory rating (PASS/FAIL) of leaf lettuce (Day 1, 100 ppm av. Cl2): PASS
Sensory rating (PASS/FAIL) of leaf lettuce (Day 1, 200 ppm av. Cl2): PASS
Sensory rating (PASS/FAIL) of leaf lettuce (Day 2, 50 ppm av. Cl2): PASS
Sensory rating (PASS/FAIL) of leaf lettuce (Day 2, 100 ppm av. Cl2): PASS
Sensory rating (PASS/FAIL) of leaf lettuce (Day 2, 200 ppm av. Cl2): PASS
Sensory rating (PASS/FAIL) of leaf lettuce (Day 4, 50 ppm av. Cl2): PASS
Sensory rating (PASS/FAIL) of leaf lettuce (Day 4, 100 ppm av. Cl2): PASS
Sensory rating (PASS/FAIL) of leaf lettuce (Day 4, 200 ppm av. Cl2): PASS
Sensory rating (PASS/FAIL) of leaf lettuce (Day 5, 50 ppm av. Cl2): PASS
Sensory rating (PASS/FAIL) of leaf lettuce (Day 5, 100 ppm av. Cl2): PASS
Sensory rating (PASS/FAIL) of leaf lettuce (Day 5, 200 ppm av. Cl2): PASS
Sensory rating (PASS/FAIL) of leaf lettuce (Day 6, 50 ppm av. Cl2): PASS
Sensory rating (PASS/FAIL) of leaf lettuce (Day 6, 100 ppm av. Cl2): PASS
Sensory rating (PASS/FAIL) of leaf lettuce (Day 6, 200 ppm av. Cl2): PASS
Sensory rating (PASS/FAIL) of leaf lettuce (Day 7, 50 ppm av. Cl2): PASS
Sensory rating (PASS/FAIL) of leaf lettuce (Day 7, 100 ppm av. Cl2): PASS
Sensory rating (PASS/FAIL) of leaf lettuce (Day 7, 200 ppm av. Cl2): PASS
Sensory rating (PASS/FAIL) of leaf lettuce (Day 8, 50 ppm av. Cl2): PASS
Sensory rating (PASS/FAIL) of leaf lettuce (Day 8, 100 ppm av. Cl2): PASS
Sensory rating (PASS/FAIL) of leaf lettuce (Day 8, 200 ppm av. Cl2): PASS
Sensory rating (PASS/FAIL) of leaf lettuce (Day 9, 50 ppm av. Cl2): FAIL
Sensory rating (PASS/FAIL) of leaf lettuce (Day 9, 100 ppm av. Cl2): PASS
Sensory rating (PASS/FAIL) of leaf lettuce (Day 9, 200 ppm av. Cl2): PASS
Sensory rating (PASS/FAIL) of leaf lettuce (Day 10, 50 ppm av. Cl2): FAIL
Sensory rating (PASS/FAIL) of leaf lettuce (Day 10, 100 ppm av. Cl2): FAIL
Sensory rating (PASS/FAIL) of leaf lettuce (Day 10, 200 ppm av. Cl2): FAIL
Sensory rating (PASS/FAIL) of leaf lettuce (Day 11, 50 ppm av. Cl2): FAIL
Sensory rating (PASS/FAIL) of leaf lettuce (Day 11, 100 ppm av. Cl2): FAIL
Sensory rating (PASS/FAIL) of leaf lettuce (Day 11, 200 ppm av. Cl2): FAIL
Sensory rating (PASS/FAIL) of leaf lettuce (Day 12, 50 ppm av. Cl2): FAIL
Sensory rating (PASS/FAIL) of leaf lettuce (Day 12, 100 ppm av. Cl2): FAIL
Sensory rating (PASS/FAIL) of leaf lettuce (Day 12, 200 ppm av. Cl2): FAIL
